Results from PMC6855212, “Antibacterial activity of synthetic 1,3‐bis(aryloxy)propan‐2‐amines against Gram‐positive bacteria” (MicrobiologyOpen, 2019).

Columns and labels:
BSC‐40 cells = assay: Cytotoxicity, MTT reduction assay; type: cell-based; conditions: CC50 divided by MIC; for SI Strain 5749 / SI Strain 5912 / SI Strain 6154 / SI Strain 6613 / SI Strain 6100: MRSA
Procedure: (§1) The cytotoxicity of active compounds to mammalian cells was assessed using the MTT reduction assay (Mosmann, 1983). Vero and BSC‐40 cells were seeded in 96‐well plates (8 × 10^4 cells per well) and incubated at 37°C and 5% CO2 atmosphere. After 24 hr of incubation, 200 μL of fresh medium containing a serial dilution of compounds (10–1.25 μg/ml) were added to the plates. After 48 hr of incubation in the same conditions, 100 μL of MTT solution in MEM or DMEM (5 mg/ml) was added to each well and incubated for 3 hr at 37°C and 5% CO2 atmosphere. The medium was removed and 100 μL of DMSO was used to solubilize formazan crystals. Absorbance at 570 nm of each well was read using a spectrophotometer (VersaMax, Molecular Devices).

Vero cells = assay: Cytotoxicity, MTT reduction assay; type: cell-based; conditions: CC50 divided by MIC; for SI Strain 5749 / SI Strain 5912 / SI Strain 6154 / SI Strain 6613 / SI Strain 6100: MRSA
Procedure: as §1

MRSA strains = assay: MBC, MRSA strains taken together; type: cell-based, Staphylococcus aureus
Procedure: (§2) After incubation at 35°C for 24 hr, the colonies were counted and the percentage of inhibition was calculated. MBC is defined as the lowest compound's concentration that inhibits at least 99.9% of the bacterial cell count compared to nontreated viability control (Clinical and Laboratory Standards Institute, 1999).

S. pyogenes ATCC 19615 = assay: MBC, plating of wells without growth; type: cell-based, Streptococcus pyogenes; conditions: ratio in parentheses
Procedure: as §2

S. aureus ATCC 29212 = assay: MBC, plating of wells without growth; type: cell-based, Staphylococcus aureus; conditions: ratio in parentheses
Procedure: as §2

E. faecalis ATCC 29213 = assay: MBC, plating of wells without growth; type: cell-based, Enterococcus faecalis; conditions: ratio in parentheses
Procedure: as §2

Row | SMILES | SI Staphylococcus aureus (BSC‐40 cells) | SI Streptococcus pyogenes (BSC‐40 cells) | SI Strain 5749 (BSC‐40 cells) | SI Strain 5912 (BSC‐40 cells) | SI Strain 6154 (BSC‐40 cells) | SI Strain 6613 (BSC‐40 cells) | SI Staphylococcus aureus (Vero cells) | SI Streptococcus pyogenes (Vero cells) | SI Strain 5749 (Vero cells) | SI Strain 5912 (Vero cells) | SI Strain 6154 (Vero cells) | SI Strain 6613 (Vero cells) | MBC/MIC S. pyogenes ATCC 19615 (S. pyogenes ATCC 19615) | SI Strain 6100 (BSC‐40 cells) | SI Strain 6100 (Vero cells) | also measured
1 | NC(COc1ccc(Cl)cc1)COc1ccc(Cl)cc1 [CPD18] | 0.57 | 0.57 | 0.57 | 0.57 | 0.57 | 0.57 | 0.6 | 0.6 | 0.6 | 0.6 | 0.6 | 0.6 | – | – | – | –
2 | NC(COc1cccc2ccccc12)COc1cccc2ccccc12 [CPD20] | – | – | – | – | – | – | – | – | – | – | – | – | – | – | – | MBC compared with MIC (MRSA strains; MRSA strains nº 5749, 5912, 6100 and 6613): same values
3 | NC(COc1ccc2ccccc2c1)COc1ccc2ccccc2c1 [CPD21] | 0.51 | 0.51 | 0.51 | 1.01 | 0.51 | 0.51 | 0.43 | 0.43 | 0.43 | – | – | 0.43 | 1.0 | 0.51 | 0.43 | MBC/MIC S. pyogenes ATCC 19615 (S. pyogenes ATCC 19615; listed as CPD 21): equivalence; MBC/MIC S. aureus ATCC 29212 (S. aureus ATCC 29212): 1.0; MBC/MIC S. aureus ATCC 29212 (S. aureus ATCC 29212; listed as CPD 21): equivalence
4 | Cl.NC(COc1ccc(Cl)c(Cl)c1)COc1ccc(Cl)c(Cl)c1 [CPD22, 1,3‐Bis(3,4‐dichlorophenoxy)propan‐2‐aminium chloride] | 0.88 | 1.77 | 1.77 | 1.77 | 1.77 | 0.88 | 1.09 | 2.19 | 2.19 | 2.19 | 2.19 | 1.09 | 4.0 | 1.77 | 2.19 | MBC/MIC E. faecalis ATCC 29213 (E. faecalis ATCC 29213): > 2.0; MBC compared with MIC (MRSA strains; MRSA 43300, 5749, 5912 and 6613): same values; SI Enterococcus faecalis (BSC‐40 cells): 0.88; SI MRSA ATCC 43300 (BSC‐40 cells): 0.88; SI Enterococcus faecalis (Vero cells): 1.09; SI MRSA ATCC 43300 (Vero cells): 1.09
